Results reported in patent US20240270828A1 (UAB RESEARCH FOUNDATION, published 2024).

Key:
[1] = target: SARS-CoV-2 Spike protein D614G on pseudotyped virus (SARS-CoV-2, UniProt P0DTC2 14-1273); experiment: cell-based or functional assay
[2] = target: SARS-CoV-2 Spike protein Beta on pseudotyped virus (SARS-CoV-2 Beta, UniProt P0DTC2 14-1273); experiment: cell-based or functional assay

Row | Binder | Neutralization IC50 (µg/ml), PsV D614G [1] [µg/mL] | Neutralization IC50 (µg/ml), PsV Beta [2] [µg/mL]
1 | 1250D2 (antibody, V domains shown, Recombinant human IgG1) VH: QVQLVQSGAEVKKPGASMKVSCKASGFTFSDYYMHWVRQAPRQGLEWMGLINPSGSGTAYAQNFQGRVTLTRDTSTSTLYMEMGSLTSDDTAVYYCARMDSSGSYDHWGQGTLVTVSS VL: EIVLTQSPGTLSLSPGDRATLSCRASQTIRISYLAWYQQKPGQAPRLLVYGPSIRATGIPDRFSASGSGTDFTLTISRLEPEDFAVYYCQHYGSSPPRYTFGQGTKLEIK | 7.59 | 8.39
2 | 1242C6 (antibody, V domains shown, Recombinant human IgG1) VH: EVQLVQSGAEVKKPGASVKVSCKASGFTFSDYYMHWVRQAPRQGLEWMGLINPSGSGTAYAQNFQGRVTLTRDTSTSTLYMEMGSLTSDDTAVYYCARMDSSGSYDHWGQGTLVTVSS VL: DIVMTQSPGTLSLSPGDRATLSCRASQTIRISYLAWYQQKPGQAPRLLVYGPSIRATGIPDRFSASGSGTDFTLTISRLEPEDFAVYYCQHYGSSPPRYTFGQGTKLEIK | 8.41 | 11
3 | 1250E10 (antibody, V domains shown, Recombinant human IgG1) VH: EVQLVQSGAEVKKPGASVKFSCKASGFRVDGSYMHWVRQAPRGGLEWMGLINPSGSGTAYAQIFQGRVTLTRDTSTSTLYMELGSLGSEDTAMYYCARMDRSGSYDLWGQGTLVIVSS VL: DIVLTQSPGNLSLSPGERATLSCRASESIRSAYIAWYQQKPGQAPRLLMRGASVRAAGIPDRFSGSGSGTDYALTISRLEPEDFAVYYCQHFASSPPRYTFGQGTKLEIK | 3.64 | 4.17
4 | 1246C2 (antibody, V domains shown) VH: QVQLVQSGGGLVKPGGSLRLSCAASGFTFKTHNMIWVRQAPGKVLEWVSSISGSSSYRYYGDSMKGRLTISRDNAKNSLYLEMNSLRAEDTAVYYCARDKGVGPTMVWYFDLWGRGTLVTVSS VL: EIVLTQSPATLSLSPGDRATLSCRASQSLSISLAWYQQKPGQAPRLLIYDASIRATGVPPRFSGSGSGTDFTLTISSLEPEDFAVYYCQQWSGWPPRLTFGGGTKVEIK | 2.98 | 7
5 | 1235C10 (antibody, V domains shown, Recombinant human IgG1) VH: EVQLVESGGGLVQPGRSLRLSCTASGFTFGDHSMSWVRQAPGKGLEWVGFIRSKAYGGTTEYAASVKGRFTISRDDSKSIAYLQMNSLKIEDTAVYYCTRGLTGLDYWGQGMLVTVSS VL: DIVLTQSPDSLAVSLGERATINCKSSQSLLYSSNNKNYLAWYQQKPRQPPKLLIYWASTRESGVPDRFSGSGSGTDFTLTISSLQAEDVAVYYCQQFYNTPPTFGQGTKVEIK | 8.75 | 8.81
6 | 1212C2 (antibody, V domains shown) VH: QVQLVQSGAEVKKPGASVKVSCKASGYIFTDYFIHWVRQAPGQGLEWMGWINPNSGGTKYAQKFQGRVTMTRDTSISTVYMELSRLRSDDTAVHYCTRDLPLRTLYDSYGFDSWGQGTLVTVSS VL: LPVLTQPASVSGSPGQSITISCTGTSSDVGSYNLVSWYQQHPGKAPKLMIYDVSKRPSGVSNRFSGSKSGNTASLTISGLQAEDEADYYCCSYAGNSIVFFGGGTKLTVL | 0.003 | 0.003
7 | 1242G6 (antibody, V domains shown, Recombinant human IgG1) VH: QVQLVQSGGGVVQPGTSVRLSCAASGFTFSDHGMHWVRQAPGKGLEWVAVISFEGRNKFFADSVKGRSTISRDNSKNTVSMQVDNVRPEDTAVYYCAREHFDGSGSDYIGTRFFDYWGRGALVTVSS VL: DIQLTQSPSFLSASVGDRVTITCRASQGISHYLTWYQQKPGKAPKLLIYRTSTLQSGVPSRFSGSGSGTVFTLTISSLQPEDLATYYCQHLDNFPTITFGQGTRLDLK | 23.7 | 25.6
8 | 1242F4 (antibody, V domains shown, Recombinant human IgG1) VH: EVQLVQSGAEVKKPGTSVKVSCKASGNTVADYYMHWVRQAPRQGLEWVGLINPSGSGTAYAQNFQGRVTLTRDTSTSTLYMELGSLGSEDTAIYYCARMDSSGTYDVWGQGTLVTVSS VL: EIVLTQSPGTLSLSPGERATLSCRASQSIRSGYLAWYQQKPGQAPRLLIRGASVKATGIPDRFSGSGSGTDFTLTISRLEPEDFVVYYCQHFASSPPRYTFGQGTKLEIK | 9.23 | 17
